Data reported in ChEMBL document CHEMBL5604062, “ASAP - ZIKV NS2B-NS3 protease fluorescence dose response” (2024).
pIC50: −log10 of the molar value. Only a part of the results on these compounds is given; other tests are left out.

Amino acid sequences for entries named in this document (tags omitted). Residues count along the entry.
UniProt A0A024AXB9, 1-66: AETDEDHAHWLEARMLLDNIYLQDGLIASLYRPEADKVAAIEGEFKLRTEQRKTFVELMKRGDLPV

Molecular target: Nonstructural protein 3 (Zika virus, UniProt A0A024AXB9)

Work on `c1ccc(NC2CCN(Cc3c[nH]c4ccccc34)CC2)cc1` yielded a pIC50 of less than 4.00.

In the case of `O=c1[nH]c2ccccc2n1C1CCN(Cc2c[nH]c3ccccc23)CC1`, the pIC50 was 4.45.
